Data published in patent US7700727B2, “Compositions and kits for detecting pathogen infection” (Biokit, S.A., priority 2003, dated 2010).

T1: lysozyme (Homo sapiens, UniProt P61626)
T1 sequence (P61626 19-148): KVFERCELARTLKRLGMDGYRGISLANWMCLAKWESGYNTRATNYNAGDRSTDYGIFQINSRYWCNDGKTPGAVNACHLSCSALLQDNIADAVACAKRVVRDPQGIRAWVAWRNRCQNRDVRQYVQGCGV

B1: H31A (protein)
chain: MSPILGYWKIKGLVQPTRLLLEYLEEKYEEHLYERDEGDKWRDKKFELGLEFPNLPYYIDGDVKLTQSMAIIRYIADKHNMLGGCPKERAEISMLEGAVLDIRYGVSRIAYSKDFETLKVDFLSKLPEMLKMFEDRLCHKTYLNGDHVTHPDFMLYDALDVVLYMDPMCLDAFPKLVCFKKRIEAIPQIDKYLKSSKYIAWPLQGWQATFGGGDHPPKSDLVPRGSCVSCTTVCPAAGKAKAEKVECALKGGIFRGTLPAADCPGIDTTVTFNADGTAQKVELALEKKSAPSPLTYRGTWMVREDGIVELSLVSSEQSKAPHEKELYELIDSNSVRYMGAPGAGKPSKEMAPFYVLKKTKK
B2: His104A (protein)
chain: B1 chain with A236H, H322A

Key:
[1] = target: T1, lysozyme; assay: Lysozyme inhibition assay of Tp17 mutants; assay type: biochemical; conditions: GST-Tp17 mutants; 2 units human lysozyme
[2] = target: T1, lysozyme; assay: Lysozyme binding of Tp17 mutants (FIG. 36); conditions: GST-Tp17 mutants

Molecule	lysozyme inhibition relative to wild-type Tp17 [1]	ability to bind lysozyme [2]
B1	decrease in lysozyme inhibition	retained their ability to bind lysozyme
B2	decrease in lysozyme inhibition	retained their ability to bind lysozyme

Residue numbers refer to the chain shown, from its start. Names may count otherwise.
